Test in all cases: pseudovirus neutralization IC50; higher = weaker neutralization
In experiment [1] the target is SARS-CoV-2 Omicron BA.1 spike pseudovirus. The procedure: (§1)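 Single-round VSV luciferase pseudovirus mixed with antibody dilutions for 1 h and put on Huh-7 cells for about a day; IC50 from the dose curve.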
The target in experiment [2] is SARS-CoV-2 Omicron BA.2 spike pseudovirus. The procedure: as §1
The target of experiment [3] is SARS-CoV-2 Omicron BA.2.75 spike pseudovirus. The protocol: as §1
For experiment [4], the target named is SARS-CoV-2 Omicron BA.2.75.2 spike pseudovirus. The procedure: as §1
Experiment [5] addresses SARS-CoV-2 Omicron BA.5 spike pseudovirus. The procedure:
as §1

In experiment [6] the target is SARS-CoV-2 Omicron BM.1.1.1 spike pseudovirus. The protocol:
as §1

Experiment [7] concerns the target SARS-CoV-2 Omicron BQ.1.1 spike pseudovirus. The procedure:
as §1

Experiment [8] deals with SARS-CoV-2 Omicron BR.2 spike pseudovirus. The procedure:
as §1

Experiment [9] has as its target SARS-CoV-2 Omicron CA.1 spike pseudovirus. The procedure:
as §1

The target of experiment [10] is SARS-CoV-2 Omicron XBB spike pseudovirus. The procedure:
as §1

Experiment [11] has as its target SARS-CoV-2 early D614G spike pseudovirus. The protocol:
as §1

Human monoclonal antibodies against the spike receptor-binding domain (heavy:light variable regions). IC50 against pseudoviruses bearing the spike of naturally observed variants; lower = stronger; >10 µg/ml means not reached at the top dose. No active / inactive call. The stated detection limit is 0.0005 µg/ml; values near or below 0.001 µg/ml lie at the floor of the assay. Bounds are passed on as bounds.

B1: BD58-0415 (protein)
chain 1: EVQLVQSGAEVKKPGESLKISCKGSGYSFTSYWIGWVRQMPGKGLEWMGIIYPGDSDTRYSPSFQGQVTISADKSISTAYLQWSSLKASDTAMYYCATCDILTVCDYWGQGTLVTVSS
chain 2: EIVLTQSPGTLSLSPGERATLSCRASQSVSSGYLAWYQKKPGQAPRLLIYDASSRATGIPDRFSGSGSGTDFTLTISRLEPEDFAVYYCQQYGSSIFTFGPGTKVDIK
With B1, the “pseudovirus neutralization IC50” value in experiment [1] is greater than 10 µg/mL; in experiment [2] it was 0.963 µg/mL; in experiment [3], greater than 10 µg/mL; in [4], greater than 10 µg/mL; in experiment [5], 1.24 µg/mL; in [6], greater than 10 µg/mL. Besides, the “pseudovirus neutralization IC50” value in experiment [7], in experiment [8], in [9], in experiment [10] and in experiment [11] was greater than 10 µg/mL throughout.

B2: BD58-0429 (protein)
chain 1: EVQLVESGGGLIQPGGSLRLSCAASGFTVTSNYMSWVRQAPGKGLEWVSVIYSGGSTFYADSVKGRFTISRDIPRNTLYLQMNSLRAEDTAVYYCARLTVAAAGDAFDLWGQGTMVTVSS
chain 2: QSVLTQPPSVSAAPGQKVTISCSGSSSNIGNNYISWYQQLPGTAPKLLIYDNNKRPSGIPDRFSGSKSGTSATLGITGLQTGDEADYYCGTWDSSLSAVVFGGGTKLTVL
As for B2, the “pseudovirus neutralization IC50” value in [1] is greater than 10 µg/mL; in [2], 0.495 µg/mL; in experiment [3] it was 0.355 µg/mL; in experiment [4] it was 0.848 µg/mL; in [5] it was 0.229 µg/mL; in experiment [6] it was greater than 10 µg/mL. Also, the “pseudovirus neutralization IC50” value in experiment [7] is 1.45 µg/mL; in experiment [8] it was greater than 10 µg/mL; in experiment [9], greater than 10 µg/mL; in experiment [10], greater than 10 µg/mL; in experiment [11], greater than 10 µg/mL.

B3: BD58-0417 (protein)
chain 1: EVQLLESGGGLVQPGESLRLSCAASGFTFSSYAMSWVRQAPGKGLEWVSAISGSGAGTYYADSVKGRFTFSRDNSKNTLYLQMNSLRAEDTAVYYCAKSTWLQLASSRIFDSWGQGTLVTVSS
chain 2: NFMLTQPHSVSESPGKTVIISCTGSSGSIASNYVQWYQQRPGSAPTTVIYEDNQRPSGVPDRFSGSIDSSSNSASLTISGLKTEDEADYYCQSSDGTNWVFGGGTKLTVL
With B3, the “pseudovirus neutralization IC50” value in experiment [1], in [2], in experiment [3], in experiment [4], in experiment [5] and in experiment [6] was greater than 10 µg/mL each time. The “pseudovirus neutralization IC50” value in [7], in experiment [8], in experiment [9], in experiment [10] and in experiment [11] was greater than 10 µg/mL in each case.

B4: BD58-0407 (protein)
chain 1: QITLKESGPTLVKPTQTLTLTCTFSGFSLSTSGVSVGWIRQPPGKALEWLALIYWDDDKRYSPSLKSRLTITKDTSKNQVVLTMTDMDPVDTATYYCAHNYHSSGWFWGQGTLVTVSS
chain 2: AIQMTQSPSSLSASVGDRVTITCRASQGIRNDLGWYQQKPGKAPKLLIYAASSLQSGVPSRFSGSGSGTDFTLTISSLQPEDFATYYCLQDYSYPFTFGPGTKVDIK
On to B4, for which the “pseudovirus neutralization IC50” value in experiment [1] is greater than 10 µg/mL; in experiment [2], 4.13 µg/mL; in experiment [3] it was greater than 10 µg/mL; in [4], greater than 10 µg/mL; in experiment [5], 0.11 µg/mL; in experiment [6] it was greater than 10 µg/mL. Also, the “pseudovirus neutralization IC50” value in experiment [7], in [8], in experiment [9], in experiment [10] and in [11] was greater than 10 µg/mL throughout.

B5: BD58-0433 (protein)
chain 1: QVQLVQSGAEVKKPGASVKVSCRASGYTFTNYGISWVRQAPGQGLEWMGWISAYDGNKKYAQKFQGRVTMTTDTSTSTAYMELRSLRSDDTAVYYCARTSSNWPQELDYWGQGTLVTVSS
chain 2: QSALTQPASVSGSPGQSITISCTGTSSDVGGYNYVSWYQQHPGKAPKLMIYDVSNRPSGVSNRFSGSKSGNTASLTISGLQAEDEADYYCSSFTSGSTWVFGGGTKLTVL
Turning to B5, the “pseudovirus neutralization IC50” value was 0.288 µg/mL in [1]; 0.0597 µg/mL in experiment [2]; 0.433 µg/mL in experiment [3]; greater than 10 µg/mL in [4]; 0.021 µg/mL in [5]; greater than 10 µg/mL in [6]. Besides, the “pseudovirus neutralization IC50” value in experiment [7], in experiment [8], in experiment [9], in [10] and in [11] was greater than 10 µg/mL in each case.

(Values after the supplement of paper PMC9931576.)
